## Potato spindle tuber viroid, loop 15: variant abundance in plants

Reference: Wu et al. 2024, doi:10.1371/journal.ppat.1012142.

Region: loop 15 of PSTVd (intermediate strain), upper and lower strand joined, each 5' to 3', the first 7 letters being the upper strand, closing pairs included. Wild type: GGAAACCGCUACUAC. Varied positions (N): GGAAACCGNNNNNNC.

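A pool of all variants was put on leaves of three Nicotiana benthamiana plants. Progeny were sequenced from the inoculated region (day 5), the margin of the inoculated leaf (day 10) and systemic leaves (day 12).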

Numbers give reads per thousand; 0 = not seen among the reads, higher = more abundant. Each site shows the three plants. "Pool" is the share in the plasmid pool used as inoculum, on the same scale. The inoculated region was read from the minus strand, the other sites from the plus strand.

- GGAAACCGAAGAUGC (pool 0.240) = inoculated region 0.0164 / 0.0643 / 0.0952; leaf margin 0 / 0.0223 / 0; systemic leaves 0 / 0 / 0
- GGAAACCGACACCGC (pool 0.144) = inoculated region 0.131 / 0.112 / 0.0381; leaf margin 0 / 0 / 0; systemic leaves 0 / 0 / 0
- GGAAACCGACCACUC (pool 0.224) = inoculated region 0.0983 / 0.145 / 0.114; leaf margin 0 / 0.0223 / 0.0200; systemic leaves 0 / 0 / 0
- GGAAACCGACUUCAC (pool 0.288) = inoculated region 0.180 / 0.0964 / 0.0952; leaf margin 0.0162 / 0.0223 / 0.0200; systemic leaves 0 / 0 / 0
- GGAAACCGACUUGUC (pool 0.208) = inoculated region 0.180 / 0.209 / 0.0571; leaf margin 0 / 0.0445 / 0; systemic leaves 0 / 0 / 0
- GGAAACCGACUUUUC (pool 0.240) = inoculated region 0.213 / 0.209 / 0.114; leaf margin 0.0323 / 0 / 0.0401; systemic leaves 0.0161 / 0 / 0
- GGAAACCGAUCAGCC (pool 0.336) = inoculated region 0.131 / 0.0643 / 0.0381; leaf margin 0.0323 / 0.0223 / 0.0401; systemic leaves 0 / 0 / 0
- GGAAACCGAUCGAGC (pool 0.160) = inoculated region 0.164 / 0.0964 / 0.209; leaf margin 0.0162 / 0 / 0.0200; systemic leaves 0 / 0 / 0
- GGAAACCGCACAAGC (pool 0.208) = inoculated region 0.213 / 0.112 / 0.228; leaf margin 1.05 / 0 / 0.0401; systemic leaves 0 / 0 / 0
- GGAAACCGCAGCUGC (pool 0.192) = inoculated region 0.0983 / 0.0803 / 0.0762; leaf margin 0 / 0 / 0.0200; systemic leaves 0 / 0 / 0
- GGAAACCGCAUAUGC (pool 0.304) = inoculated region 0.164 / 0.145 / 0.0762; leaf margin 0.0162 / 0 / 0; systemic leaves 0 / 0 / 0.0228
- GGAAACCGCCAUCGC (pool 0.304) = inoculated region 0.0655 / 0.112 / 0.0190; leaf margin 0 / 0 / 0; systemic leaves 0 / 0 / 0
- GGAAACCGCCAUUCC (pool 0.160) = inoculated region 0.278 / 0.257 / 0.400; leaf margin 0.129 / 0.111 / 0.100; systemic leaves 0.0483 / 0.0151 / 0.114
- GGAAACCGCCCACUC (pool 0.224) = inoculated region 0.278 / 0.289 / 0.267; leaf margin 0.146 / 0.111 / 0.100; systemic leaves 0.0644 / 0 / 0
- GGAAACCGCGAGGGC (pool 0.272) = inoculated region 0.295 / 0.273 / 0.248; leaf margin 0.129 / 0.111 / 0.180; systemic leaves 0.0805 / 0 / 0
- GGAAACCGCGAUCAC (pool 0.192) = inoculated region 0.213 / 0.337 / 0.495; leaf margin 0.0970 / 0.0668 / 0.0801; systemic leaves 0.0161 / 0.0605 / 0.0684
- GGAAACCGCGCAUGC (pool 0.336) = inoculated region 0.147 / 0.0803 / 0.0571; leaf margin 0 / 0 / 0.0601; systemic leaves 0.0161 / 0 / 0
- GGAAACCGCGCUGGC (pool 0.336) = inoculated region 0.0491 / 0.0482 / 0.0952; leaf margin 0.0162 / 0.0223 / 0; systemic leaves 0 / 0 / 0
- GGAAACCGCUAGUAC (pool 0.272) = inoculated region 31.2 / 31.5 / 35.7; leaf margin 16.6 / 11.4 / 20.9; systemic leaves 8.61 / 6.50 / 6.04
- GGAAACCGCUAUCUC (pool 0.208) = inoculated region 0.295 / 0.434 / 0.457; leaf margin 0.129 / 0.0445 / 0.220; systemic leaves 0.0805 / 0 / 0
- GGAAACCGGAAAUUC (pool 0.400) = inoculated region 0.442 / 0.337 / 0.476; leaf margin 0.0970 / 0.0668 / 0.140; systemic leaves 0.0644 / 0 / 0
- GGAAACCGGAGAAUC (pool 0.192) = inoculated region 0.0819 / 0.112 / 0.0571; leaf margin 0 / 0 / 0; systemic leaves 0 / 0 / 0
- GGAAACCGGGCACUC (pool 0.208) = inoculated region 0.0491 / 0.0964 / 0.0762; leaf margin 0 / 0 / 0.0401; systemic leaves 0 / 0 / 0
- GGAAACCGGUCUGAC (pool 0.192) = inoculated region 0.0655 / 0.112 / 0.133; leaf margin 0 / 0.0445 / 0.0401; systemic leaves 0.0161 / 0 / 0
- GGAAACCGGUGGCCC (pool 0.240) = inoculated region 0.131 / 0.0964 / 0.0952; leaf margin 0 / 0 / 0.0200; systemic leaves 0.0161 / 0 / 0
- GGAAACCGGUGUACC (pool 0.160) = inoculated region 0.0655 / 0.177 / 0.152; leaf margin 0 / 0.0445 / 0; systemic leaves 0 / 0 / 0
- GGAAACCGUAGCAUC (pool 0.304) = inoculated region 0.0491 / 0.129 / 0.0571; leaf margin 0 / 0.0223 / 0.0200; systemic leaves 0 / 0 / 0
- GGAAACCGUAUCUGC (pool 0.224) = inoculated region 0.0491 / 0.0803 / 0.133; leaf margin 0.0162 / 0.0223 / 0; systemic leaves 0 / 0 / 0
- GGAAACCGUCCCGGC (pool 0.208) = inoculated region 0.0819 / 0.0643 / 0.190; leaf margin 0 / 0.0223 / 0; systemic leaves 0 / 0 / 0
- GGAAACCGUCGUCUC (pool 0.288) = inoculated region 0.0983 / 0.112 / 0.0190; leaf margin 0 / 0 / 0.0601; systemic leaves 0 / 0 / 0
- GGAAACCGUGUCGUC (pool 0.256) = inoculated region 0.115 / 0.112 / 0.0571; leaf margin 0.0162 / 0 / 0; systemic leaves 0 / 0 / 0
- GGAAACCGUUCGCGC (pool 0.256) = inoculated region 0.0983 / 0.0482 / 0.0571; leaf margin 0 / 0.0223 / 0.0200; systemic leaves 0.0161 / 0 / 0
- GGAAACCGUUCUUAC (pool 0.192) = inoculated region 0.197 / 0.321 / 0.209; leaf margin 0.0647 / 0.134 / 0.160; systemic leaves 0.0161 / 0.0454 / 0.137
- GGAAACCGUUGGCAC (pool 0.288) = inoculated region 0.0655 / 0.0964 / 0.114; leaf margin 0 / 0 / 0.0401; systemic leaves 0 / 0 / 0
- GGAAACCGUUUUCUC (pool 0.304) = inoculated region 0.0819 / 0.129 / 0.114; leaf margin 0 / 0.0223 / 0.0200; systemic leaves 0 / 0 / 0

Excerpt, the final 4 entries:

sequence,pool,inoculated region,leaf margin,systemic leaves
GGAAACCGUUCGCGC,0.256,0.0983 / 0.0482 / 0.0571,0 / 0.0223 / 0.0200,0.0161 / 0 / 0
GGAAACCGUUCUUAC,0.192,0.197 / 0.321 / 0.209,0.0647 / 0.134 / 0.160,0.0161 / 0.0454 / 0.137
GGAAACCGUUGGCAC,0.288,0.0655 / 0.0964 / 0.114,0 / 0 / 0.0401,0 / 0 / 0
GGAAACCGUUUUCUC,0.304,0.0819 / 0.129 / 0.114,0 / 0.0223 / 0.0200,0 / 0 / 0

For reference, wild type rose from 33.9 per thousand in the pool to 202, 200, 159 (inoculated region), 724, 746, 710 (leaf margin) and 856, 883, 880 (systemic leaves). With 43,870-66,106 reads a sample, very low values are single reads. The authors trace changes outside the varied positions to PCR and sequencing errors or to mutation in the plant; presence does not show that a variant is infectious alone.